Positions count from the first letter of the chain named. Human monoclonal antibodies against the spike receptor-binding domain (heavy:light variable regions). IC50 against pseudoviruses bearing the spike of naturally observed variants; lower = stronger; >10 µg/ml means not reached at the top dose. No active / inactive call. The stated detection limit is 0.0005 µg/ml; values near or below 0.001 µg/ml lie at the floor of the assay.
B1: BD56-577 (protein)
chain 1: QEQVEESGGGVVQPGRSLRLSCAASGFTFRNSAMHWVRQAPGKGLEWVALISYDGTKTFYADSVNGRFSISRDNSKNRLYLRLSALRPEDTAIYYCARGIGYCTDDDVCHTPYYYYGMDVWGPGTTVTVSS
chain 2: DIQITQSPSSLSASVGDRVTIACRASQTISSYLNWYQHKPGKAPSLLIYGASSLQSGVPSRFSGSGSGTDFTLTIRSLQPEDFATYYCQQTYSPPLTFGGGTKVEIK
B2: BD56-591 (protein)
chain 1: EVQLVESGGGLVQPGGSLRLSCAASGFTFSRNDMHWVRQSTGKGLEYVSTIGTSGDAYYADSVKGRFSISRENAKNSLFLQMNSLRAGDTAVYFCTRGGDGYKLGSWYFDLWGRGTLVTVSS
chain 2: DIQMTQSPSSLSASLGDRVTIACRASQTIGTFLNWYQQQPGKAPKLLIYAASTLQSGVPSRFSGSGSGTDFTLTISSLQPDDFATYYCQQSYSTSITFGLGTRLEI
B3: BD56-581 (protein)
chain 1: EVQLVQSGSELKKPGASVKVSCKAFGYPFTTFAMNWVRQAPGQGLEWMGWIDTNTGNPTYAQGFTGRFVFSLDTSVSTAYLQISSLKTEDTAVYYCASWGGSVGPGWFDPWGQGTLVTVSS
chain 2: SYVLTQPPSVSVAPGKTARITCGGNNIGSRSVHWYQQKPGQAPVLVIYYDSDRPSGVPERFSGSNSGNTATLTISRVEGGDEADYYCQVWVSSHDHPEDVVFGGGTKLTVL
B4: BD56-587 (protein)
chain 1: QVQLVQSGAEVKKPGSSVKVSCKASGGTFSSYAFSWVRQAPGQGLEWMGRIIPVLAITNYARKFQGRVAITADTSTSTAYMELSSLRSEDTAVYYCARDLDYDILTGRRGGYFYYYMDVWGKGTTVTVSS
chain 2: QSVLTQPPSASGTPGQRVTISCSGSSSNIGSNAVNWYLQLPGTAPKLLIYNNDQRPSGVPDRFSGSKSGTSASLAISGLQSEDEADYHCAAWDDSLGGQEVFGTGTKVTVL
B5: BD56-600 (protein)
chain 1: EVQLLESGGGLVQPGGSLRLSCAASGFTFSNYALSWVRQAPGKGLEWVSGISGTGGGTFYADSVKGRFTISRDNSKNTLYLQMNTLRVEDTAVYYCAKEGTDIHWYFDLWGRGTLVTVSS
chain 2: DIQMTQSPSSLSASVGDRVTITCRASQNIRTYLNWYQLKPGKAPKLLIYAASTLQSGVPSRFSAGGSGTDFTLTISSLQPEDFATYYCQQSYSTPPITFGQGTRLEIK
B6: BD56-592 (protein)
chain 1: QVQLQESGPGLVKPSETLSLTCTVSGGSISTIRNRIYYWGWIRQSPGKGLEWIGSVHYTGTTYYNKSLTSRVTISVDTSKNQLSLRLSSVTAADTAVYYCARHFYSSDYFDYWGQGTLVTVSS
chain 2: QSVLTQPPSVSGAPGQRVTVSCTGSSSNIGAGYDVHWYRQLPGTTPKLLIYGNSYRPSGVPDRFSGSKSDTSASLAITGLQAEDEADYYCQSYDSSLSAWVFGGGTKLTVL
B7: BD56-597 (protein)
chain 1: QVQLVQSGAEVKKPGSSVKVSCKASGGTFSTYPISWVRQAPGQGVEWMGAIIPILGTTDYAQIFQGRVTITADKSTSTAYMELSSLRPEDTAVYYCARERGYSGYGAAYYFDSWGQGTLVTVSS
chain 2: B6 chain 2 with V20I, S26D, R39Q, T45A, G52V, S54I, Y55N, D70A, A99G, W100V
B8: BD56-573 (protein)
chain 1: EVQLVESGGGLVQPGGSLRLSCAASGFTFSTYDMHWVRQTTGKGLEWVSTIGSAGDRYYPDSVKGRFTISRENAKNSLYLQMNSLKAGDTAVYYCARVTHSAMTAGGRIFHYYYMDVWGKGTTVTVSS
chain 2: DIQMTQSPSSLSASVGDRVTITCRASQTITRFLNWYQQKPGKAPKLLIYGASSLQSGVPSRFSGSGSGTDFTLTISSLQPEDFATYFCQQTYSSPGSTFGGGTKVEIK
B9: BD56-595 (protein)
chain 1: QITLKESGPTLVKPTQTLTLTCTFSGFSITTAGVGVGWIRQPPGKALEWLALIYWDGDRRYSPSLKNRVDITTDISKNQVVLTMTNMAPVDTATYYCAQHTIDMILDYWGQGTLVTVSS
chain 2: QSALTQPPSASGSPGQSVTISCTATSSDVGAYNYVSWYQQHPGKAPKLMIYEVNKRPSGVPDRFSGSKSGNTASLTVSGLQAEDEADYYCSSYTDNIVFGTGTRVTVL
B10: BD56-576 (protein)
chain 1: EVQLVESGGGLVQPGGSLRLSCAASGFTFSSYDMHWVRQTPGEGLEWVSLIGTAGDTYYPESVKGRFTISRENAKNSLYLQMNNLRAGDTAVYYCARAGYDILTAYLDLWGRGTLVTVSS
chain 2: DIQMTQSPSSLSASVGDTVTITCRASQSIRTYLNWYQQKPGKAPKLLIYAASSLQSGVPSRFSGSGSGTEFTLTISSLQPEDFATYYCQQSYIMPPWTFGQGTKVEIK
B11: BD56-588 (protein)
chain 1: EVQLVESGGGLVPPGGSLRLSCAASGFSFSNYDMHWVRQATGKGLEWVSGIGTSGDTYYAVSVKGRFTISRENAKNSLYLQMNSLRAGDTAVYYCARGGTDSSGFYYWFDPWGQGTLVTVSS
chain 2: B10 chain 2 with T18R, R30N, T31N, Y49F, E70D, F71Y, I93S, M94S
B12: BD56-602 (protein)
chain 1: EVQLVESGGGLVQPGGSLRLSCAASGFTFSSYDMHWVRQVTGKGLEWVSTIGTAGDTYYPGSVKGRFTISRENVKSSLYLQMNSLRAGDTAVYFCARVGYDSSGLHWYIDYWGQGTLVTVSS
chain 2: DIQMTQSPPSLSASVGDRVTITCRASQSIGRYLNWYQQKPGKAPKLLIYAASSLQRGVPSRFSGSGSGTDFTLTITSLQPEDFATYYCQQSYSNPLYTFGQGTKLEI

Each binder was assayed against SARS-CoV-2 Omicron BA.1 spike pseudovirus (assay: pseudovirus neutralization IC50; higher = weaker neutralization).
Procedure: (§1)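 Single-round VSV luciferase pseudovirus mixed with antibody dilutions for 1 h and put on Huh-7 cells for about a day; IC50 from the dose curve.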

Row | Binder | pseudovirus neutralization IC50
1 | B1 | > 10 µg/mL
2 | B2 | > 10 µg/mL
3 | B3 | 0.235 µg/mL
4 | B4 | 0.0289 µg/mL
5 | B5 | > 10 µg/mL
6 | B6 | 0.107 µg/mL
7 | B7 | 0.0782 µg/mL
8 | B8 | > 10 µg/mL
9 | B9 | 0.00119 µg/mL
10 | B10 | 1.92 µg/mL
11 | B11 | > 10 µg/mL
12 | B12 | 5.42 µg/mL

Each binder was assayed against SARS-CoV-2 Omicron BA.2 spike pseudovirus in the same assay as above.
Procedure: as §1

Row | Binder | pseudovirus neutralization IC50
13 | B1 | > 10 µg/mL
14 | B2 | > 10 µg/mL
15 | B3 | 0.247 µg/mL
16 | B4 | 0.0325 µg/mL
17 | B5 | > 10 µg/mL
18 | B6 | 0.0917 µg/mL
19 | B7 | 0.08 µg/mL
20 | B8 | > 10 µg/mL
21 | B9 | 0.000387 µg/mL
22 | B10 | 2.93 µg/mL
23 | B11 | > 10 µg/mL
24 | B12 | 4.28 µg/mL

Each binder was assayed against SARS-CoV-2 Omicron BA.2.75 spike pseudovirus in the same assay as above.
Procedure: as §1

Row | Binder | pseudovirus neutralization IC50
25 | B1 | > 10 µg/mL
26 | B2 | > 10 µg/mL
27 | B3 | 0.21 µg/mL
28 | B4 | 0.0286 µg/mL
29 | B5 | > 10 µg/mL
30 | B6 | 0.0489 µg/mL
31 | B7 | 0.0726 µg/mL
32 | B8 | > 10 µg/mL
33 | B9 | 0.00209 µg/mL
34 | B10 | 6.12 µg/mL
35 | B11 | > 10 µg/mL
36 | B12 | 5.02 µg/mL

Each binder was assayed against SARS-CoV-2 Omicron BA.5 spike pseudovirus in the same assay as above.
Procedure: as §1

Row | Binder | pseudovirus neutralization IC50
37 | B1 | > 10 µg/mL
38 | B2 | > 10 µg/mL
39 | B3 | > 10 µg/mL
40 | B4 | > 10 µg/mL
41 | B5 | > 10 µg/mL
42 | B6 | > 10 µg/mL
43 | B7 | 0.122 µg/mL
44 | B8 | > 10 µg/mL
45 | B9 | 0.000564 µg/mL
46 | B10 | 2.76 µg/mL
47 | B11 | > 10 µg/mL
48 | B12 | 4.41 µg/mL

What follows are binders tested against SARS-CoV-2 Omicron BQ.1.1 spike pseudovirus in the same assay as above.
Procedure: as §1

Row | Binder | pseudovirus neutralization IC50
49 | B1 | > 10 µg/mL
50 | B2 | > 10 µg/mL
51 | B3 | > 10 µg/mL
52 | B4 | > 10 µg/mL
53 | B5 | > 10 µg/mL
54 | B6 | > 10 µg/mL
55 | B7 | 0.232 µg/mL
56 | B8 | > 10 µg/mL
57 | B9 | > 10 µg/mL
58 | B10 | 3.46 µg/mL
59 | B11 | > 10 µg/mL
60 | B12 | 2.88 µg/mL

The binders below were run against SARS-CoV-2 Omicron XBB spike pseudovirus in the same assay as above.
Procedure: as §1

Row | Binder | pseudovirus neutralization IC50
61 | B1 | > 10 µg/mL
62 | B2 | > 10 µg/mL
63 | B3 | > 10 µg/mL
64 | B4 | > 10 µg/mL
65 | B5 | > 10 µg/mL
66 | B6 | > 10 µg/mL
67 | B7 | 0.706 µg/mL
68 | B8 | > 10 µg/mL
69 | B9 | > 10 µg/mL
70 | B10 | 3.86 µg/mL
71 | B11 | > 10 µg/mL
72 | B12 | 5.78 µg/mL

Each binder was assayed against SARS-CoV-2 early D614G spike pseudovirus in the same assay as above.
Procedure: as §1

Row | Binder | pseudovirus neutralization IC50
73 | B1 | > 10 µg/mL
74 | B2 | > 10 µg/mL
75 | B3 | 1.04 µg/mL
76 | B4 | 0.0134 µg/mL
77 | B5 | 7.87 µg/mL
78 | B6 | 0.0751 µg/mL
79 | B7 | 0.0675 µg/mL
80 | B8 | 6.28 µg/mL
81 | B9 | 0.001 µg/mL
82 | B10 | 3.3 µg/mL
83 | B11 | > 10 µg/mL
84 | B12 | > 10 µg/mL
